Results of unrelated studies side by side (data: NIAID ChemDB).

Shared fields: target-level tests; agent: HIV-1; protein: Reverse transcriptase; read-out: fold resistance

Neighbouring rows are from separate reports.

structure | strain or isolate | mutations | method | value
CCN1c2ncc(CCOc3ccc(C(=O)O)c4c3CCCC4)cc2C(=O)N(C)c2cccnc21 | - | RT-K103N Y181C | nucleotide incorporation / radiometric | 1–10
CC(C)=CCN1Cc2cccc3[nH]c(=S)n(c23)C[C@@H]1C | - | RT-Q161L H208Y | - | 1.9
CCN1c2ncc(CCOc3cccc4c3CCCN4CC(=O)O)cc2C(=O)N(C)c2cccnc21 | - | RT-K103N Y181C | nucleotide incorporation / radiometric | >10
Cc1c(Cc2ccc(F)cc2)nc(SCc2ccc([N+](=O)[O-])cc2)[nH]c1=O | - | RT-K103N | nucleotide incorporation / radiometric | ~1
CNc1ccc(Cl)cc1S(=O)(=O)c1ccccc1[N+](=O)[O-] | - | RT-Y188L | - | 9.09
CCC1(c2ccc(COc3cccnc3)cc2)Oc2ccccc2-n2cccc2C1=O | - | RT-L100I | nucleotide incorporation / radiometric | 0.75
Cc1cn([C@H]2C=C[C@@H](COP(=O)(O)OP(=O)(O)OP(=O)(O)O)O2)c(=O)[nH]c1=O | - | RT-Y181I | RT activity | 4.5
CCN1c2ncc(CCOc3ccc(C(=O)O)c4ccccc34)cc2C(=O)N(C)c2ccc(Cl)nc21 | - | RT-K103N Y181C | nucleotide incorporation / radiometric | 1
Cc1c(Cc2c(Cl)cccc2Cl)nc(SCc2ccccc2)[nH]c1=O | - | RT-181I | nucleotide incorporation / radiometric | >160
Cc1cc(S(N)(=O)=O)ccc1NC(=O)COc1ccc(Cl)cc1C(=O)c1cc(Cl)cc(C#N)c1 | - | RT-V108I Y181C | fluorescence | 2.66
CCc1c(Sc2ccccn2)n(COCc2ccccc2)c(=O)[nH]c1=O | - | RT-K103N | - | 3
CCc1cc(CCc2nc3ccccc3o2)c(=O)[nH]c1C | - | RT-K103N Y181C | nucleotide incorporation | 4100
CCOCn1c(Cc2ccccc2)c(C(C)C)c(=O)[nH]c1=O | - | RT-V106A | nucleotide incorporation / radiometric | 9.7
C=C(CC(=O)O)c1ccc(OCCc2cnc3c(c2)C(=O)N(C)c2cccnc2N3CC)c2ccccc12 | - | RT-K103N Y181C | nucleotide incorporation / radiometric | 1–10
CCC1(c2cccc(Cl)c2)Cc2ccccc2-n2cccc2C1=O | - | RT-K103N | nucleotide incorporation / radiometric | 3
Nc1ccn([C@H]2CC[C@@H](COP(=O)(O)OP(=O)(O)OP(=O)(O)O)O2)c(=O)n1 | - | RT-V106A P225H | nucleotide incorporation / radiometric | 0.72
Nc1ncnc2c1ncn2CCOCP(=O)(O)OP(=O)(O)OP(=O)(O)O | - | RT-A62V V75I F77L F116Y Q151M | nucleotide incorporation / radiometric | 2.38
CCC1(c2cccc(N)c2)Oc2ccccc2-n2cccc2C1=O | - | RT-K103N | nucleotide incorporation / radiometric | 6.6
CC(C)=CCOc1cc(NC(=S)c2ccoc2C)ccc1Cl | - | RT-V106A | nucleotide incorporation / radiometric | 15
CCC1(c2ccc(CCc3ccccc3)cc2)Oc2ccccc2-n2cccc2C1=O | - | RT-K103N | nucleotide incorporation / radiometric | >58.8
CC(C)(C)OC(=O)Cn1cnc2c(Oc3ccccc3[N+](=O)[O-])nc(NC(=O)OCc3ccccc3)nc21 | NNRTI-resistant | K103N | nucleotide incorporation / radiometric | 89
Nc1ccn([C@@H]2CS[C@H](COP(=O)(O)OP(=O)(O)OP(=O)(O)O)O2)c(=O)n1 | - | RT-A62V V75I F77L F116Y Q151M | nucleotide incorporation / radiometric | 1.85
CCC1(c2ccc(CNc3cccc(F)c3)cc2)Oc2ccccc2-n2cccc2C1=O | - | RT-K103N | nucleotide incorporation / radiometric | 5.75
CC(C)=CCOc1cc(NC(=S)c2ccoc2C)ccc1Cl | - | RT-L74V | - | 0.63
Cc1c(Cc2c(F)cccc2F)nc(SCc2ccc(C#N)cc2)[nH]c1=O | - | RT-K103N | nucleotide incorporation / radiometric | >526
CCN1c2ncc(CCOc3ccc(C(=O)O)c4ccccc34)cc2C(=O)N(C)c2cccnc21 | - | RT-Y188L | nucleotide incorporation / radiometric | >10
Cc1cn([C@H]2C=C[C@@H](COP(=O)(O)OP(=O)(O)OP(=O)(O)O)O2)c(=O)[nH]c1=O | - | RT-L74V | nucleotide incorporation / radiometric | 1.11
O=C(O)Cn1cnc2c(Oc3ccccc3[N+](=O)[O-])nc(NC(=O)OCc3ccccc3)nc21 | NNRTI-resistant | Y181I | nucleotide incorporation / radiometric | 5
O=c1c2cccn2c2cc(Cl)c(Cl)cc2n1CCNC(=S)Nc1ccc(Br)cn1 | - | RT-Y188L | nucleotide incorporation | 7.5
CCc1cc(CCc2nc3c(Cl)ccc(Cl)c3o2)c(=S)[nH]c1C | - | RT-K103N | nucleotide incorporation | 5
Cc1c(Cc2c(F)cccc2F)nc(SCc2ccc(C(C)C)cc2)[nH]c1=O | - | RT-181I | nucleotide incorporation / radiometric | >133
O=C1c2ccncc2C(=O)N1CCNC(=S)Nc1ccc(Br)cn1 | - | RT-Y181I | nucleotide incorporation | 14.3
C/C=C/CSc1cc(NC(=S)c2ccsc2C)ccc1Cl | - | RT-E138K | - | 0.51
CCN1c2ncc(CCOc3ccc(CC(N)=O)c4ccccc34)cc2C(=O)N(C)c2cccnc21 | - | RT-Y188L | nucleotide incorporation / radiometric | >10
Nc1ncnc2c1ncn2[C@@H]1O[C@H](COP(=O)(O)OP(=O)(O)OP(=O)(O)O)C[C@@H]1F | - | RT-T215Y | nucleotide incorporation / radiometric | 1.42
CCC1(c2cccc(COc3ccccc3)c2)Oc2ccccc2-n2cccc2C1=O | - | RT-K103N | nucleotide incorporation / radiometric | 6.125
CCN1c2ncc(CCOc3ccc(CCC(=O)O)c4ccccc34)cc2C(=O)N(C)c2ccc(C)nc21 | - | RT-K103N Y181C | nucleotide incorporation / radiometric | 1–10
c1ccc(C2SCc3nc4ccccc4n32)cc1 | - | RT-K103N | - | ~2
Cc1cn([C@H]2C=C[C@@H](COP(=O)(O)OP(=O)(O)OP(=O)(O)O)O2)c(=O)[nH]c1=O | - | RT-E138A | nucleotide incorporation / radiometric | 0.8
O=c1c2cccn2c2ccccc2n1CCNC(=S)Nc1ccc(Cl)cn1 | - | RT-Y181I | nucleotide incorporation | >50
Cc1occc1C(=S)Nc1ccc(Cl)c(/C=N/OC(C)(C)C)c1 | - | RT-Y188L | - | 17.27
CCC1(c2ccc(COc3ccccc3)cc2)Oc2ccccc2-n2cccc2C1=O | - | RT-K103N | nucleotide incorporation / radiometric | 2.6
O=c1c2cccn2c2cccc(F)c2n1CCNC(=S)Nc1ccc(Br)cn1 | - | RT-V106A | nucleotide incorporation | 1.67

The first 6 rows once more:

structure | strain or isolate | mutations | method | value
CCN1c2ncc(CCOc3ccc(C(=O)O)c4c3CCCC4)cc2C(=O)N(C)c2cccnc21 | - | RT-K103N Y181C | nucleotide incorporation / radiometric | 1–10
CC(C)=CCN1Cc2cccc3[nH]c(=S)n(c23)C[C@@H]1C | - | RT-Q161L H208Y | - | 1.9
CCN1c2ncc(CCOc3cccc4c3CCCN4CC(=O)O)cc2C(=O)N(C)c2cccnc21 | - | RT-K103N Y181C | nucleotide incorporation / radiometric | >10
Cc1c(Cc2ccc(F)cc2)nc(SCc2ccc([N+](=O)[O-])cc2)[nH]c1=O | - | RT-K103N | nucleotide incorporation / radiometric | ~1
CNc1ccc(Cl)cc1S(=O)(=O)c1ccccc1[N+](=O)[O-] | - | RT-Y188L | - | 9.09
CCC1(c2ccc(COc3cccnc3)cc2)Oc2ccccc2-n2cccc2C1=O | - | RT-L100I | nucleotide incorporation / radiometric | 0.75

Fold resistance has wild type as its base. An empty or dashed field is not shown. Two numbers with a dash give a range or band.